Pooled drug test results. Numbers come from NIAID ChemDB, via PubChem.

Shared fields: whole-cell or culture tests; species: Varicella zoster virus; read by: plaque count; measure: EC50

Conditions beyond the fields shown may differ between rows. ECn is the concentration giving n% inhibition of infection, replication or growth.

SMILES,cell line,strain or isolate,result
Cc1cccc2c1OP(=O)(OC[C@H]1O[C@@H](n3cc(/C=C/Br)c(=O)[nH]c3=O)C[C@@H]1OC(=O)[C@@H](N)C(C)C)OC2,HELF,OKA,0.026 µg/mL
O=C(O)CP(=O)(O)O,HEL,BVaraU-resistant,5.8 µg/mL
O=c1[nH]c(=O)n([C@H]2C[C@H](O)[C@@H](COP3(=O)OCc4cc(Cl)ccc4O3)O2)cc1/C=C/Br,HELF,OKA,0.008 µg/mL
Nc1nc(N)c2ncn(C[C@H]3CC[C@@H](CO)C3)c2n1,HEL,07/1 (TK-),>50 µg/mL
Nc1ncnc2c1ncn2C[C@@H](CO)OCP(=O)(O)O,HEL,BVaraU-resistant,0.0034 µg/mL
Nc1nc2c(ncn2C[C@H]2CC[C@@H](CO)C2)c(=O)[nH]1,HEL,OKA,>200 µg/mL
Nc1ccn(C[C@H]2COP(=O)(O)CO2)c(=O)n1,HEL,YS/R (TK-),0.28 µM
COc1ccc2c(c1)COP(=O)(OC[C@H]1O[C@@H](n3cc(/C=C/Br)c(=O)[nH]c3=O)C[C@@H]1O)O2,HELF,OKA,0.01 µg/mL
Nc1nc(N)c2nnn(C[C@H]3CC[C@@H](CO)C3)c2n1,HEL,YS,>50 µg/mL
Cc1cccc2c1OP(=O)(OC[C@H]1O[C@@H](n3cc(/C=C/Br)c(=O)[nH]c3=O)C[C@@H]1OC(=O)[C@@H](N)CC(C)C)OC2,HELF,OKA,0.033 µg/mL
Nc1nc2c(ncn2COC(CO)CO)c(=O)[nH]1,HEL,ACV-resistant,2.5 µg/mL
Nc1nc2c(nnn2C[C@H]2CC[C@@H](CO)C2)c(=O)[nH]1,HEL,YS/R (TK-),>200 µg/mL
O=c1[nH]c(=O)n([C@@H]2O[C@H](CO)[C@@H](O)[C@@H]2O)cc1/C=C/Br,HEL,PMEA-resistant,0.00011 µg/mL
Nc1nc(Cl)c2nnn(C[C@H]3CC[C@@H](CO)C3)c2n1,HEL,YS,>200 µg/mL
Cc1cccc2c1OP(=O)(OC[C@H]1O[C@@H](n3cc(/C=C/Br)c(=O)[nH]c3=O)C[C@@H]1OC(=O)CN)OC2,HELF,OKA,0.029 µg/mL

A second listing of 2 rows from above:

SMILES | cell line | strain or isolate | result
Cc1cccc2c1OP(=O)(OC[C@H]1O[C@@H](n3cc(/C=C/Br)c(=O)[nH]c3=O)C[C@@H]1OC(=O)[C@@H](N)CC(C)C)OC2 | HELF | OKA | 0.033 µg/mL
Cc1cccc2c1OP(=O)(OC[C@H]1O[C@@H](n3cc(/C=C/Br)c(=O)[nH]c3=O)C[C@@H]1OC(=O)[C@@H](N)C(C)C)OC2 | HELF | OKA | 0.026 µg/mL